Measured values from several laboratories, pooled; numbers as filed in NIAID ChemDB.

Shared fields: whole-cell or culture tests; organism: Mycobacterium tuberculosis

ECn is the concentration giving n% inhibition of infection, replication or growth. An empty or dashed field is not shown. Neighbouring rows are from separate reports. A number after MIC or MFC names an inhibition level or a share of isolates. Percent inhibition refers to the dose given; in toxicity tests it is the harm to the cells. MIC bound: limit read from a one-dose screen.

smiles	strain or isolate	method	read-out	changes	tested at	result
COc1ccc(CSc2ncccn2)cc1	H37Rv		MIC90			>6.25 µg/mL
CCCCCCCCCCCCCCCCN.Cl	H37Rv		MIC			>100 µg/mL
CC(=O)OCC1=C(C(=O)O)N2C(=O)[C@@H](NC(=O)CSc3ccncc3)[C@H]2SC1	H37Rv	BACTEC	inhibition		12.5 µg/mL	22%
CO[C@H]1/C=C/O[C@@]2(C)Oc3c(C)c(O)c4c(O)c(c(/C=N/N5CCN(C)CC5)c(O)c4c3C2=O)NC(=O)/C(C)=C\C=C\[C@H](C)[C@H](O)[C@@H](C)[C@@H](O)[C@@H](C)[C@H](OC(C)=O)[C@@H]1C	H37Rv		Median MIC			0.075 µg/mL
N#Cc1ccccc1C(N)=O	H37Rv		MIC			>100 µg/mL
NC1=NC(c2ccc(Cl)cc2)N(c2ccc(S(=O)(=O)Nc3ncccn3)cc2)C(N)=N1	H37Rv	BACTEC	inhibition		12.5 µg/mL	31%
CC(C)c1ccc2c(c1)CC[C@H]1[C@](C)(CNCCNC3CCC3)CCC[C@]21C			MIC			50 µM
CC(=O)Nc1ccc(S(=O)(=O)N2CCSCC2)cc1	H37Rv		MIC			>100 µg/mL
Cc1ccc(Sc2ncccn2)cc1	H37Rv		MIC90			>6.25 µg/mL
COc1ccc2c(c1)OC(c1ccccc1)CC2=O			EC50			>12.5 µg/mL
NNC(=O)c1ccncc1	PR819		MIC			10 µg/mL
CCC(=O)N1CN(C(=O)CC)CN(C(=O)CC)C1	H37Rv		MIC			>100 µg/mL
COc1cc(O[C@@H]2O[C@H](CO)[C@@H](O)[C@H](O)[C@H]2O)c2c(c1)O[C@H](c1ccc(O)cc1)CC2=O	H37Rv	BACTEC	inhibition		12.5 µg/mL	2%
Oc1ccc(CCNCCNCc2ccccc2)cc1			MIC			50 µM
NNC(=O)c1ccncc1	Isolate 2		MIC			16 µg/mL
Cc1ccc(CSc2ccncc2)cc1	H37Rv		inhibition		6.25 µg/mL	6%
CO[C@H]1/C=C/O[C@@]2(C)Oc3c(C)c(O)c4c(O)c(c(/C=N/N5CCN(C6CCCC6)CC5)c(O)c4c3C2=O)NC(=O)/C(C)=C\C=C\[C@H](C)[C@H](O)[C@@H](C)[C@@H](O)[C@@H](C)[C@H](OC(C)=O)[C@@H]1C	1032		MIC			0.08 µg/mL
O=c1[nH][nH]c(=O)c2ccccc12			MIC			200 µg/mL
Brc1cccc(C=Nc2ccccc2)c1	H37Rv		MIC			100 µg/mL
CO[C@H]1/C=C/O[C@@]2(C)Oc3c(C)c(O)c4c(O)c(c5c(c4c3C2=O)NC2(CCN(CC(C)C)CC2)N=5)=NC(=O)/C(C)=C\C=C\[C@H](C)[C@H](O)[C@@H](C)[C@@H](O)[C@@H](C)[C@H](OC(C)=O)[C@@H]1C	Isolate 900216 drug-susceptible		MIC			0.063 µg/mL
Cc1ccccc1CSc1ccncc1	H37Rv		MIC90			>6.25 µg/mL
CO[C@H]1/C=C/O[C@@]2(C)Oc3c(C)c(O)c4c(O)c(c(/C=N/N5CCN(C)CC5)c(O)c4c3C2=O)NC(=O)/C(C)=C\C=C\[C@H](C)[C@H](O)[C@@H](C)[C@@H](O)[C@@H](C)[C@H](OC(C)=O)[C@@H]1C	9133		MIC			≥2 µg/mL
COc1ccc(C(=O)N/N=C/c2ccco2)cc1			MIC			10 µg/mL
Cc1[nH]ccc1C(=O)O	H37Rv		MIC			50 µg/mL
CO[C@H]1/C=C/O[C@@]2(C)Oc3c(C)c(O)c4c(O)c(c5c(c4c3C2=O)NC2(CCN(CC(C)C)CC2)N=5)=NC(=O)/C(C)=C\C=C\[C@H](C)[C@H](O)[C@@H](C)[C@@H](O)[C@@H](C)[C@H](OC(C)=O)[C@@H]1C	Strain 120 121 (Q510H H526Y)		MIC			32 µg/mL
O=[As](O)(O)c1ccccc1	H37Rv		MIC			>100 µg/mL
C[C@@H]1O[C@@H](O[C@H]2CC[C@]3(C=O)[C@H]4CC[C@]5(C)[C@@H](C6=CC(=O)OC6)CC[C@]5(O)[C@@H]4CC[C@]3(O)C2)[C@H](O)[C@H](O)[C@H]1O	H37Rv	BACTEC	MIC bound			>12.5 µg/mL
C1CSCCS1	H37Rv		MIC			>100 µg/mL
CC(=O)NC[C@H]1CN(c2ccc(N3CCOCC3)c(F)c2)C(=O)O1	Clinical isolate BRF 7	resazurin	MIC	SM-resistant		0.25 µg/mL
CCCCCCCCCCCNCCNCc1cccc2ccccc12			MIC			25 µM
CN(C)c1ccc(O)c2c1C[C@H]1C[C@H]3[C@H](N(C)C)C(=O)C(C(N)=O)=C(O)[C@@]3(O)C(=O)C1=C2O	H37Rv		Mean MIC			3.5 µg/mL
CO[C@H]1/C=C/O[C@@]2(C)Oc3c(C)c(O)c4c(=O)c(c5oc6cc(N7CCN(CC(C)C)CC7)cc(=O)c6nc5c4c3=C2O)NC(=O)/C(C)=C\C=C\[C@H](C)[C@H](O)[C@@H](C)[C@@H](O)[C@@H](C)[C@H](OC(C)=O)[C@@H]1C	Kurono		MIC			0.002 µg/mL
COc1ccc(/C=C2\C(=O)N(C)C(=O)c3cc(OC)c(OC)cc32)cc1OC	H37Rv	resazurin	MIC bound			>6.25 µg/mL
NC(=O)C(O)c1ccccc1	H37Rv		MIC			>100 µg/mL
C=CCN(CCNC/C=C(\C)CC=C(C)C)C1CCCC1			MIC			12.5 µM
C[C@H]1COc2c(N3CCN(C)CC3)c(F)cc3c(=O)c(C(=O)O)cn1c23	Isolate 2		MIC			16 µg/mL
Oc1ccccc1Sc1ccccc1O	H37Rv		MIC			>100 µg/mL
COCCNC(=O)c1ccc2c(c1)n(O)c(=O)c(C#N)[n+]2[O-]	H37Rv	BACTEC	MIC bound			>12.5 µg/mL
NCC[C@H](O)C(=O)N[C@@H]1C[C@H](N)[C@@H](O[C@H]2O[C@H](CN)[C@@H](O)[C@H](O)[C@H]2O)[C@H](O)[C@H]1O[C@H]1O[C@H](CO)[C@@H](O)[C@H](N)[C@H]1O	H37Rv		MIC			2.5 µg/mL
C/C=C/C=N/NC(=O)c1ccccc1Cl			MIC			10 µg/mL
CCCCCCCCSc1nc(Cl)nc2nc[nH]c12	H37Rv		inhibition		6.25 µg/mL	48%
C=C1C(=O)O[C@@H]2C[C@@H](C)[C@@H]3[C@@H](OC4OC(COC(C)=O)C(O)C(O)C4O)CC(=O)[C@@]3(C)C[C@H]12	H37Rv	BACTEC	inhibition		12.8 µg/mL	96%
NCC[C@H](O)C(=O)N[C@@H]1C[C@H](N)[C@@H](O[C@H]2O[C@H](CN)[C@@H](O)[C@H](O)[C@H]2O)[C@H](O)[C@H]1O[C@H]1O[C@H](CO)[C@@H](O)[C@H](N)[C@H]1O	TN3432 (W)		MIC			>256 µg/mL
CN(C)c1ccc(C(=O)NN)cc1			MIC			40 µg/mL
COc1cc(CSc2nc(=O)[nH]c3nc[nH]c23)cc(OC)c1	H37Rv		inhibition		6.25 µg/mL	0%
CCOC(=O)C1=C(Nc2ccc(Cl)c(Cl)c2)OC/C1=N\NC(=O)Cc1ccccc1	H37Rv	BACTEC	inhibition		12.5 µg/mL	11%
CO[C@H]1/C=C/O[C@@]2(C)Oc3c(C)c(O)c4c(O)c(c(/C=N/N5CCN(C)CC5)c(O)c4c3C2=O)NC(=O)/C(C)=C\C=C\[C@H](C)[C@H](O)[C@@H](C)[C@@H](O)[C@@H](C)[C@H](OC(C)=O)[C@@H]1C	10S		MIC			1 µg/mL
NNC(=O)c1ccncc1	3897		MIC			≥0.2 µg/mL
C[C@@H]1CN(c2c(F)c(N)c3c(=O)c(C(=O)O)cn(C4CC4)c3c2F)C[C@H](C)N1	891207		MIC			0.1 µg/mL
c1ccc2c(c1)Sc1ccccc1N2CCN1CCOCC1	H37Rv		MIC			100 µg/mL
C[C@@H]1CN(c2c(F)c(N)c3c(=O)c(C(=O)O)cn(C4CC4)c3c2F)C[C@H](C)N1	Isolate 2		MIC			32 µg/mL
CCCCCCCCCCCCC(CCCCC)(C(=O)OCC)C(=O)OCC	H37Rv		MIC			>100 µg/mL
CN[C@@H]1[C@H](O[C@H]2[C@H](O[C@H]3[C@H](O)[C@@H](O)[C@H](N=C(N)N)[C@@H](O)[C@@H]3N=C(N)N)O[C@@H](C)[C@]2(O)C=O)O[C@@H](CO)[C@H](O)[C@H]1O	H37Rv		Median MIC			0.28 µg/mL
O=C1c2ccccc2OC(c2cccc(Br)c2)C1O			inhibition		12.5 µg/mL	60%
O=C(N/N=C/C=C/c1ccccc1)c1ccccc1Cl			MIC			>100 µg/mL
CCCCCSc1ncnc2nc[nH]c12	H37Ra		MIC			>12.8 µg/mL
CCCCC(=O)N/N=C/c1cccc(OC)c1OC	H37Rv	BACTEC	MIC			≥12.5 µg/mL
C=C(C)C1CC=C(C)/C(=N\O)C1	H37Rv		MIC			>100 µg/mL
Nc1c(C(=O)Nc2ccc(NC(=O)c3ccc4c(c3N)C(=O)c3ccccc3C4=O)c3c2C(=O)c2ccccc2C3=O)ccc2c1C(=O)c1ccccc1C2=O	H37Rv	BACTEC	MIC bound			>12.5 µg/mL
COc1ccc(C2CC(=O)c3ccc(I)cc3O2)cc1	H37Rv		EC50			>12.5 µg/mL
CCCC(=O)NCCO	H37Rv		MIC			>100 µg/mL
O=C(/C=C/c1cc2ccccc2[nH]1)c1ccncc1			inhibition		12.5 µg/mL	12%
CCC1C[N+]2=C(c3cc(OC)c(OC)cc3CC2)c2c1cc1n2CCc2cc(OC)c(OC)cc2-1	EMB-R		MIC			>12.8 µg/mL
CC[C@@H](CO)NCCN[C@@H](CC)CO	MDR10	broth dilution / resazurin	MIC			16 µg/mL
COc1ccc2c(c1)OCC1c3cc(OC)c(OCc4ccccc4)cc3O[C@H]21	H37Rv	BACTEC	MIC bound			>12.5 µg/mL
O=C(O)c1ccccc1	H37Rv		MIC			>100 µg/mL
CCN(CC)c1ccc2nc3c4ccccc4c(=N)cc-3oc2c1	PZA-R		MIC			1.6 µg/mL
CCOC(=O)/C(O)=C\c1ccc2ccccc2n1	H37Rv		MIC			>100 µg/mL
CCCCCCCCCCCNCCN[C@@H]1C[C@@H]2C[C@H]([C@H]1C)C2(C)C			MIC			25 µM
CC(=O)O[C@H]1C[C@@]2(C)[C@@H](C[C@@H](O)[C@H]3[C@@]4(C)CC[C@@H](O)[C@@H](C)[C@@H]4CC[C@@]32C)/C1=C(\CCC=C(C)C)C(=O)O	H37Ra		Mean MIC			5 µg/mL
CCOC(=O)c1c(C)c2c(n1C)CC/C(=C\N1CCN(c3ccccc3)CC1)C2=O	H37Rv	resazurin	MIC bound			>6.25 µg/mL
CC(C)=CCC/C(C)=C/CNCCNC1CCCC(C)C1C			MIC			25 µM
CN1CCCC(CN2c3ccccc3Sc3ccccc32)C1	H37Rv	BACTEC	inhibition		12.5 µg/mL	75%
Clc1nc(Sc2ccc3ccccc3n2)c2[nH]cnc2n1.O	H37Rv		inhibition		6.25 µg/mL	4%
CCCCN(CCCC)CCCC(O)c1cc(-c2ccccc2)nc2ccc(OC)cc12.Cl	H37Rv		MIC			100 µg/mL
O=C(c1ccccc1)c1oc2ccc(Br)cc2c1-c1cnn(-c2ccccc2)c1	H37Rv	BACTEC	inhibition		12.5 µg/mL	-8%
COc1ccc(OC)c(CCNCCNCCCCCO)c1			MIC			12.5 µM
O=C1CN(c2ccccc2)C(=O)CN1NCNN1CC(=O)N(c2ccccc2)CC1=O	H37Rv	BACTEC	inhibition		12.5 µg/mL	0%
COc1ccc(/C=C/C(=O)c2ccc(F)cc2O)cc1	H37Rv		EC50			<12.5 µg/mL
O=C1c2cccc(Cl)c2C(=O)c2cccc(Cl)c21	H37Rv		MIC			>100 µg/mL
CC(=O)Oc1cc2nc3ccccc3nc2cc1N(C)C	H37Rv	BACTEC	inhibition		12.5 µg/mL	99%
NC(N)=NC(N)=Nc1ccccc1-c1ccccc1.O	H37Rv		MIC			25 µg/mL
C/C(=N/NC(=S)N1CCC(C)CC1)c1nccnc1C	PZA-R		MIC			1.6 µg/mL
O=C(O)c1cc(=O)cc(C(=O)O)o1	H37Rv		MIC			>100 µg/mL
CCOC(=O)C(Cc1c[nH]c2ccccc12)NC(=O)C1(O)C(O)C2(CC)C=CCN3CCC4(c5cc(C6(C(=O)OC)CC7CC(CC)CN(CCc8c6[nH]c6ccccc86)C7)c(OC)cc5N(C)C14)C32.CS(=O)(=O)O	H37Rv	BACTEC	inhibition		12.5 µg/mL	1%
O=C1C[C@@H](c2ccc(O)cc2)Oc2cc(O)c(-c3c(O)cc4c(c3O)C(=O)C[C@@H](c3ccc(O)cc3)O4)c(O)c21			inhibition		12.5 µg/mL	0%

A second listing of 8 rows from above:

smiles	strain or isolate	method	read-out	changes	tested at	result
CCCCCCCCSc1nc(Cl)nc2nc[nH]c12	H37Rv		inhibition		6.25 µg/mL	48%
CC(=O)Oc1cc2nc3ccccc3nc2cc1N(C)C	H37Rv	BACTEC	inhibition		12.5 µg/mL	99%
CO[C@H]1/C=C/O[C@@]2(C)Oc3c(C)c(O)c4c(O)c(c(/C=N/N5CCN(C)CC5)c(O)c4c3C2=O)NC(=O)/C(C)=C\C=C\[C@H](C)[C@H](O)[C@@H](C)[C@@H](O)[C@@H](C)[C@H](OC(C)=O)[C@@H]1C	H37Rv		Median MIC			0.075 µg/mL
C=C1C(=O)O[C@@H]2C[C@@H](C)[C@@H]3[C@@H](OC4OC(COC(C)=O)C(O)C(O)C4O)CC(=O)[C@@]3(C)C[C@H]12	H37Rv	BACTEC	inhibition		12.8 µg/mL	96%
C[C@@H]1CN(c2c(F)c(N)c3c(=O)c(C(=O)O)cn(C4CC4)c3c2F)C[C@H](C)N1	Isolate 2		MIC			32 µg/mL
C1CSCCS1	H37Rv		MIC			>100 µg/mL
O=C1c2cccc(Cl)c2C(=O)c2cccc(Cl)c21	H37Rv		MIC			>100 µg/mL
CC(C)=CCC/C(C)=C/CNCCNC1CCCC(C)C1C			MIC			25 µM